Test system: WS-1 cell lines
Test: Cytotoxicity assay on WS-1 (Example 1)
Details: ratio of toxicity on WS-1 to toxicity on S. aureus WT ATCC 25923
Experimental: Cytotoxicity assay. The cytotoxicity assay was performed in 96-well plates (BD Falcon). The WS-1 cell lines were provided by ATCC. The WS-1 was cultured in DMEM+10% fetal calf serum. The cells were plated in a volume of 100 μL at a density of 5000 cells per well and incubated at 37° C.+5% CO2 for 24 h to promote cell adhesion.
The plates were incubated at 37° C.+5% CO2 for 48 h. The cells were then washed with 100 μL of HBSS and 150 μL of a 2% resazurin were added to the wells.
The therapeutic index is the ratio between the toxicity on normal cells, in this case fibroblast, and the toxicity on bacteria.

Row | Compound | Therapeutic index
1 | COc1ccc(CCC(=O)c2c(O)cc(O)c(C/C=C/c3ccc(O)cc3)c2O)cc1 [Compound II] | 10
2 | O=C(CCc1ccccc1)c1c(O)cc(O)c(C/C=C/c2ccc(O)cc2)c1O [Compound III] | 9

Test system: WS-1 cell lines
Test: Cytotoxicity assay on WS-1 (Example 2)
Assay type: cell-based
Details: ratio of toxicity on WS-1 to toxicity on S. aureus WT ATCC 25923
Experimental: Cytotoxicity assay. […] The WS-1 cell lines were provided by ATCC. […] The compounds tested were then added at 8 different concentrations. […] In Table 7, the therapeutic indexes of compounds IV to XXI are presented.

Row | Compound | Therapeutic index
3 | COc1ccc(CCC(=O)c2c(O)cc(O)c3c2OC(c2ccc(O)cc2)CC3)cc1 (racemic) [VII] | 11
4 | O=C(CCc1ccccc1)c1c(O)cc(O)c2c1O[C@@H](c1ccc(O)cc1)CC2 [VI] | 18
5 | O=C(CCc1ccccc1)c1c(O)cc(O)c2c1O[C@H](c1ccc(O)cc1)CC2 [V] | 20
6 | COc1ccc(CCC(=O)c2c(O)cc(O)c3c2OC(c2ccc(O)cc2)C(O)C3)cc1 (centres unmarked) [XX] | 3
7 | COc1cc(O)c(C(=O)CCc2ccc(O)cc2)c2c1CC[C@@H](c1ccc(O)cc1)O2 [XI] | 128
8 | COc1cc(O)c(C(=O)CCc2ccc(O)cc2)c2c1CCC(c1ccc(O)cc1)O2 (racemic) [X] | 3
9 | O=C(CCc1ccccc1)c1c(O)cc(O)c2c1OC(c1ccc(O)cc1)CC2 (racemic) [IV] | 12
10 | O=C(CCc1ccccc1)c1c(O)cc(O)c2c1OC(c1ccc(O)cc1)C(O)C2 (centres unmarked) [XVIII] | 5
11 | O=C(CCc1ccccc1)c1c(O)cc2c(c1O)CC(O)C(c1ccc(O)cc1)O2 (centres unmarked) [XV] | 3
12 | COc1ccc(CCC(=O)c2c(O)cc(O)c3c2OC(c2ccc(O)cc2)C(O)C3)cc1 (racemic) [XIX] | 3
13 | O=C(CCc1ccccc1)c1c(O)cc2c(c1O)CC(O)C(c1ccc(O)cc1)O2 (centres unmarked) [XIV] | 4
14 | COc1ccc(CCC(=O)c2c(O)cc(O)c3c2O[C@H](c2ccc(O)cc2)CC3)cc1 [VIII] | 1
15 | COc1ccc(CCC(=O)c2c(O)cc(O)c3c2OC(c2ccc(O)cc2)C(O)C3)cc1 (centres unmarked) [XXI] | 1
16 | COc1ccc(CCC(=O)c2c(O)cc(O)c3c2O[C@@H](c2ccc(O)cc2)CC3)cc1 [IX] | 6
17 | O=C(CCc1ccccc1)c1c(O)cc(O)c2c1OC(c1ccc(O)cc1)C(O)C2 (centres unmarked) [XVII] | 3
18 | O=C(CCc1ccccc1)c1c(O)cc(O)c2c1OC(c1ccc(O)cc1)C(O)C2 (racemic) [XVI] | 8
19 | COc1cc(O)c(C(=O)CCc2ccc(O)cc2)c2c1CC[C@H](c1ccc(O)cc1)O2 [XII] | 86
20 | O=C(CCc1ccccc1)c1c(O)cc2c(c1O)CC(O)C(c1ccc(O)cc1)O2 (racemic) [XIII] | 3

Reference: US9499509B2, “Dihydrochalcone derivatives and their use as antibiotic agents” (UNIVERSITÉ DU QUÉBEC À CHICOUTIMI, priority 2012, dated 2016)
